Anti-infective test results gathered from many reports (values: NIAID ChemDB through PubChem).

Shared fields: host cell toxicity; measure: CC50

Neighbouring rows are from separate reports. CCn is the concentration with n% toxicity to the cells. Blank or dashed fields: not listed here.

| SMILES | method | cells | result |
|---|---|---|---|
| CCOC(=O)C1=C(CN2CC(F)(F)[C@@H]3[C@H]2CON3C[C@H](F)C(C)(C)C(=O)O)NC(c2nccs2)=N[C@H]1c1cccc(F)c1C | WST / absorbance | HepG2.2.15 | >50 µM |
| CCOC(=O)Cc1c(O)c2cccnc2n(O)c1=O | - | HeLa | <100 µM |
| CCNC(=S)Nc1cccc(OCCCCCc2ccccc2)c1 | MTS | Ava5-EG(delta4AB)SEAP | >1 µM |
| CC(C)c1ccc(NC(=O)NCCc2ccc3c(n2)NCCC3)cc1 | - | PBMC | 7 µM |
| NC(=S)Nc1ccc(OCCCCCOc2ccc(F)cc2F)cc1 | MTS | Ava5-EG(delta4AB)SEAP | >1 µM |
| CCOC(=O)CCCCCOc1cccc(CN(C(=O)c2ccc(-c3cccc([N+](=O)[O-])c3)cc2)C(C)C)c1 | - | RAJI | >20 µM |
| CCOC(=O)C1=C(CN2CC(F)(F)[C@@H]3[C@H]2CON3[C@@H](C)[C@@H](O)C(C)(C)C(=O)O)NC(c2nccs2)=N[C@H]1c1cccc(F)c1C | WST / absorbance | HepG2.2.15 | >6.25 µM |
| COc1ccc(S(=O)(=O)NCCc2ccc3c(n2)NCCC3)cc1 | - | PBMC | 50 µM |
| CCOC(=O)c1c(O)c2cc(C(=O)N(C)Cc3ccccc3)cnc2n(O)c1=O | - | HeLa | <100 µM |
| COC(=O)C1=C(CN2CC(F)(F)[C@@H]3[C@H]2CON3CC[C@](C)(O)C(=O)O)NC(c2nccs2)=N[C@H]1c1ccc(F)c(F)c1Cl | WST / absorbance | HepG2.2.15 | >100 µM |
| COc1ccc(-c2ccccc2OCCCCCOc2cccc(NC(N)=S)c2)cc1 | MTS | Ava5-EG(delta4AB)SEAP | >1 µM |
| CCOC(=O)C1=C(CN2CC(F)(F)[C@H]3[C@@H]2CCN3C[C@@H](O)C(C)(C)C(=O)O)NC(c2nccs2)=N[C@H]1c1cccc(F)c1C#N | WST / absorbance | HepG2.2.15 | 19.1 µM |
| CC(C)(CCOc1ccc(-c2ccccc2)cc1)CCOc1cccc(NC(N)=S)c1 | MTS | Ava5-EG(delta4AB)SEAP | >1 µM |
| CCOC(=O)CCCCCOc1cccc(CN(C(=O)c2ccc(-c3ccncc3)cc2)C(C)C)c1 | - | HEK 293 | >20 µM |
| NC(=S)Nc1cccc(OCCCCCOc2cccnc2)c1 | MTS | Ava5-EG(delta4AB)SEAP | >1 µM |
| O=C(NCCc1ccc2c(n1)NCCC2)Nc1cc(Cl)ccc1Cl | - | PBMC | 28.3 µM |
| CC(C)N(Cc1cccc(OCCCCCC(=O)OC(=O)O)c1)C(=O)c1ccc(-c2cccc(C(F)(F)F)c2)cc1 | - | HEK 293 | >20 µM |
| Nc1cc(=O)n(O)c2ncccc12 | - | HeLa | <100 µM |
| C[C@H](NC(=O)NCCc1ccc2c(n1)NCCC2)c1ccc2ccccc2c1 | - | PBMC | 50 µM |
| NC(=S)Nc1cccc(OCCCCCOc2ccc(-c3ccc(Cl)cc3)cc2)c1 | MTS | Ava5-EG(delta4AB)SEAP | >1 µM |
| CC(=O)Nc1ccc(S(=O)(=O)NCCc2ccc3c(n2)NCCC3)cc1Cl | - | PBMC | 50 µM |
| COc1ccccc1CNc1cc(=O)n(O)c2ncccc12 | - | HeLa | 0.09 µM |

A second listing of 3 rows from above:

SMILES	method	cells	result
COc1ccc(-c2ccccc2OCCCCCOc2cccc(NC(N)=S)c2)cc1	MTS	Ava5-EG(delta4AB)SEAP	>1 µM
CCOC(=O)C1=C(CN2CC(F)(F)[C@@H]3[C@H]2CON3[C@@H](C)[C@@H](O)C(C)(C)C(=O)O)NC(c2nccs2)=N[C@H]1c1cccc(F)c1C	WST / absorbance	HepG2.2.15	>6.25 µM
CC(C)c1ccc(NC(=O)NCCc2ccc3c(n2)NCCC3)cc1	-	PBMC	7 µM